B1: PexRD54^Δ298 (Ser-299 to Val-381) (domain or fragment)
chain: SESSHKTMADVWLKARETPEEVFRILRLAEKQTAAADDNRMLNLWLRYTQTYRDKIDKNAFSDAEALQFFRKAKPLDFDWEIV
B2: ATG8CL (potato), expressed from pOPINF (natural protein)
chain: MAKSSFKLEHPLERRQAEAARIREKYPDRIPVIVEKAERSDIPDIDKKKYLVPADLTVGQFVYVVRKRIKLSAEKAIFIFVKNILPPTAAMMSAIYEEHKDEDGFLYMTYSGENTFGSF
notes: also called pOPINF-ATG8CL

Experiment [1] has as its target B2. The experiment can be described thus: ITC.
The target of experiment [2] is T1, ATG8CL-GST-His fusion protein (potato, UniProt M1C146 1-119).
T1 construct: source: E. coli, purified (Ni-NTA, gel filtration)
T1 sequence: B2 chain
The experiment can be described thus: peptide or protein array.

The target in experiment [3] is PexRD54^Δ218 (Arg-219 to Val-381) (Phytophthora infestans, UniProt D0NBE6 219-381). The experiment can be described thus: ITC.

The values below come from article PMC5025708, “Structural Basis of Host Autophagy-related Protein 8 (ATG8) Binding by the Irish Potato Famine Pathogen Effector Protein PexRD54*^([image sbox.jpg])^♦” (The Journal of Biological Chemistry, 2016).

As for B1, in experiment [1], the affinity, expressed as Kd, was 39 nM. In other words, the double-digit nanomolar range. For KPLDFDFEIV (anchored to the membrane at the N terminus, free C terminus) [10-mer peptide of PexRD54 (Lys-372–Val-381) with Phe at position 378], the binding result in experiment [2] is on record as “binds”. The molecule B2 showed a Kd in experiment [3] of 69 nM.

As a reminder, the Kd is the equilibrium constant for the complex coming apart. A low value points to a tighter complex.
